Anti-infective test results gathered from many reports (values: NIAID ChemDB through PubChem).

Shared fields: tests in culture; species: Candida albicans; endpoint: zone

Zones are inhibition diameters on agar. Rows are shuffled and stem from different studies. An empty or dashed field is not shown.

| smiles | dose | strain or isolate | read by | value |
|---|---|---|---|---|
| CCC(C)CCCCCCCCCCC(=O)N[C@H]1C[C@@H](O)[C@@H]([n+]2cc[nH]c2)NC(=O)C2[C@@H](O)[C@@H](C)CN2C(=O)C(CO)NC(=O)C([C@H](O)C(O)c2ccc(O)cc2)NC(=O)NC(=O)[C@@H]2C[C@@H](O)CN2C(=O)[C@H]([C@@H](C)O)NC1=O | 2 mg/mL | IV | agar | 24 mm |
| CCOC(=O)C1CCN(Cn2nc(C34CC5CC(CC(C5)C3)C4)n(/N=C/c3ccc(Cl)c(Cl)c3)c2=S)CC1 | 200 µg/disc | IFO 3007 | agar diffusion | <10 mm |
| C/C=C/C1=CC2=CC(=O)[C@](C)(OC(=O)c3c(OC)cc(O)c(O)c3C)C(=O)C2=CO1 | 50 µg/disc | ATCC 64548 | agar diffusion | 0 mm |
| Fc1cccc(-c2nnc(CN3CCC(n4nc5ccccc5n4)CC3)o2)c1F | 1200 µg/mL | - | - | 17.25 mm |
| COc1ccc(C2=NN(C(N)=S)C(c3cc4c([nH]3)CC(C)(C)CC4=O)C2)cc1 | 1000 µg/mL | ATCC 2091 | - | 21 mm |
| Cc1ccc(C(C)C)c(O)c1 | 100 µg/mL | MTCC | agar diffusion | 8 mm |
| CN1CCN(Cn2nc(C34CC5CC(CC(C5)C3)C4)n(/N=C/c3c(F)cccc3F)c2=S)CC1 | 200 µg/disc | IFO 3007 | agar diffusion | <10 mm |
| O=C(NCCn1c(-c2ccccc2)nc2ccc([N+](=O)[O-])cc2c1=O)Nc1cc(C(F)(F)F)cc(C(F)(F)F)c1 | 100 µg/mL | ATCC 66027 | broth dilution / agar diffusion | 17 mm |
| Fc1cccc(F)c1/C=N/n1c(C23CC4CC(CC(C4)C2)C3)nn(CN2CCN(Cc3ccccc3)CC2)c1=S | 200 µg/disc | IFO 3007 | agar diffusion | 17 mm |
| CC(C)(C)c1cc(-c2nnc(CN3CCC(n4nc5ccccc5n4)CC3)o2)cc(C(C)(C)C)c1 | 900 µg/mL | - | - | 15.04 mm |
| NNC(=O)Cc1nnc2nnc3c(n12)Nc1ccccc1C3 | 1000 µg/mL | ATCC 2091 | - | 23 mm |
| CCOC(=O)C1CCN(Cn2nc(C34CC5CC(CC(C5)C3)C4)n(/N=C/c3ccccc3F)c2=S)CC1 | 200 µg/disc | IFO 3007 | agar diffusion | <10 mm |
| O=C(NCCn1c(-c2ccccc2)nc2ccc([N+](=O)[O-])cc2c1=O)Nc1ccc(Cl)cc1 | 100 µg/mL | ATCC 66027 | broth dilution / agar diffusion | 15 mm |
| COc1ccc(C(=O)/C=C/c2cc3c([nH]2)CC(C)(C)CC3=O)cc1 | 1000 µg/mL | ATCC 2091 | - | 23 mm |
| CCC(C)CCCCCCCCCCC(=O)N[C@H]1C[C@@H](O)[C@@H](O)NC(=O)C2[C@@H](O)[C@@H](C)CN2C(=O)C(CO)NC(=O)C([C@H](O)C(O)c2ccc(O)cc2)NC(=O)NC(=O)[C@@H]2C[C@@H](O)CN2C(=O)[C@H]([C@@H](C)O)NC1=O | 2 mg/mL | IV | agar | 32 mm |
| C(=N\Nc1nnc2c(n1)Nc1ccccc1N2)/c1ccccc1 | 1000 µg/mL | ATCC 2091 | - | 22 mm |
| CCC(C)CCCCCCCCCCC(=O)N[C@H]1C[C@@H](O)[C@@H](Sc2ccccc2)NC(=O)C2[C@@H](O)[C@@H](C)CN2C(=O)C(CO)NC(=O)C([C@H](O)C(O)c2ccc(O)cc2)NC(=O)NC(=O)[C@@H]2C[C@@H](O)CN2C(=O)[C@H]([C@@H](C)O)NC1=O | 2 mg/mL | IV | agar | 16 mm |
| CC1(C)CC(=O)c2cc(C3CC(c4ccc(Cl)cc4)=NN3)[nH]c2C1 | 1000 µg/mL | ATCC 2091 | - | 24 mm |
| O=C(NCCn1c(-c2ccccc2)nc2ccc([N+](=O)[O-])cc2c1=O)NC1CCCCC1 | 100 µg/mL | ATCC 66027 | broth dilution / agar diffusion | 13 mm |
| O=S(=O)(NC(=S)Nc1ccccc1)c1ccc(N2N=C(c3ccc(Cl)cc3)C(Br)C2c2ccccc2)cc1 | 1000 µg/mL | ATCC 2091 | - | 25 mm |
| CCOC(=O)C1CCN(Cn2nc(C34CC5CC(CC(C5)C3)C4)n(/N=C/c3ccc(OC)cc3)c2=S)CC1 | 200 µg/disc | IFO 3007 | agar diffusion | <10 mm |
| Cc1c(Br)cccc1-c1nnc(CN2CCC(n3nc4ccccc4n3)CC2)o1 | 600 µg/mL | - | - | 4.18 mm |
| Fc1cccc(Cl)c1/C=N/n1c(C23CC4CC(CC(C4)C2)C3)n[nH]c1=S | 200 µg/disc | IFO 3007 | agar diffusion | <10 mm |
| NNc1nnc2c(n1)Nc1ccccc1C2 | 1000 µg/mL | ATCC 2091 | - | 23 mm |
| COc1ccccc1/C=N/n1c(C23CC4CC(CC(C4)C2)C3)n[nH]c1=S | 200 µg/disc | IFO 3007 | agar diffusion | <10 mm |
| Cc1ccccc1NC(=O)NCCn1c(-c2ccccc2)nc2ccc([N+](=O)[O-])cc2c1=O | 100 µg/mL | ATCC 66027 | broth dilution / agar diffusion | 16 mm |
| S=c1[nH]nc(C23CC4CC(CC(C4)C2)C3)n1/N=C/c1ccc(Br)cc1 | 200 µg/disc | IFO 3007 | agar diffusion | 16 mm |
| COc1cccc(-c2nnc(CN3CCC(n4nc5ccccc5n4)CC3)o2)c1 | 300 µg/mL | - | - | 2.25 mm |

2 of the rows above, restated:

smiles | dose | strain or isolate | read by | value
Fc1cccc(F)c1/C=N/n1c(C23CC4CC(CC(C4)C2)C3)nn(CN2CCN(Cc3ccccc3)CC2)c1=S | 200 µg/disc | IFO 3007 | agar diffusion | 17 mm
COc1cccc(-c2nnc(CN3CCC(n4nc5ccccc5n4)CC3)o2)c1 | 300 µg/mL | - | - | 2.25 mm